Experiment [1] addresses RBDRmYN02-CoV (RmYN02-CoV S protein residues 298-503, C-terminal His-tag) (RmYN02-CoV). Nature of the experiment: ELISA.
The target in experiment [2] is spike of SARS-CoV-2 Delta strain (authentic virus) (SARS-CoV-2). As to the kind of experiment: cell-based or functional assay.
For experiment [3], the target named is T1, RBDBM-4831-CoV (BM-4831-CoV S protein residues 310-530, C-terminal His-tag) (BM-4831-CoV).
T1 construct: range 310-530
Nature of the experiment: ELISA. In general terms: An ELISA detects its analyte on a solid surface through an enzyme-linked reagent.

The values that follow come from patent publication US20250002563A1, “Broadly neutralizing nanobodies for coronavirus and uses thereof” (UNIVERSITY OF PITTSBURGH OF THE COMMONWEALTH SYSTEM OF …, published 2025).

B1: R37 (VHH)
VHH: QVQLVESGGGLVQTGGSLRLSCAASGRTFSNYVMGWFRQAPGKEREFVSSIEWNSENTFYANSVKGRFTISRDNAKNTVYLQMNSLKAEDTAVYYCAADRGSSYYYTRASEYTYWGQGTQVTVSS
By IC50 is commonly meant the concentration needed to halve the response being measured. In experiment [1], B1 registered an IC50 of less than 10 nM.

B2: 5p-59 (VHH)
VHH: QVQLVESGGGLVQAGGSLRLSCAVSGRTISTFGMAWFRQAPGKVREFVATITRDEDLTLYADSVKGRFTISRDTAKNTVFLQMNSLKIEDTALYYCAVRRDDSWGYSRQSIEYDYWGQGTQVTVSS
B2 had an IC50 in experiment [1] of less than 10 nM.

B3: 5p-60 (VHH)
VHH: QVQLVESGGGLVQAGGSLRLSCAVSGRTISTFGMGWFRQAPGKEREFVATITRDEDMLLYADSVKGRFTISRDTAKNMVFLQMNSLKIEDTALYYCAVRRDSSWGYSRQSTEYDYWGQGTQVTVSS
notes: class II(A) psNb
Consider B3, for which it took 10 nM to reach half-maximal inhibition in experiment [1] (IC50). For the same molecule, the “PRNT SARS-CoV-2 Delta IC50” value in experiment [2] was 8.74 nM.

B4: 5p-118 (VHH)
VHH: QVQLVESGGGLVQAGESLRLSCAASKPTFRNFAAGWFRQTPGKDREFVAVIEYDGDSAYYADSVKGRFTISRDNAKNTVYLQMNRLKPGDTAVYICAIGGNHYDPSKYYTADEYDYWGQGTQVTVSS
notes: class II(B) psNb
Take B4: the IC50 in experiment [1] and in experiment [3] was less than 10 nM throughout. Further, in experiment [2], the “PRNT SARS-CoV-2 Delta IC50” value is 3.62 nM.

B5: 4P-17 (VHH)
VHH: HVQLVESGGGLVQAGASLRLSCAASGRTASNYVMGWFRQAAGKEREFVAHISWSGDETNYADSVRGRFIISRDNAENTVYLQMNSLKPEDTAVYYCAADRGYSLMYYSSREYTYWGQGTQVTVSS
For B5, the IC50 in experiment [1] was less than 10 nM.

B6: 4P-56 (VHH)
VHH: QVQLVESGGGLVQAGGSLRLSCAASGRTDSISDMGWFRQAPGKEREFVAVVGWSGGGTDYAHSVKGRFTISRDNAKNTVYLQMNSLKPEDTAVYYCAVGSLRVGSFSVEYWGQGTQVTVSS
notes: class IV psNb
Regarding B6, the IC50 in experiment [1] and in experiment [3] was less than 10 nM throughout.

B7: 5p-38 (VHH)
VHH: QVQLVESGGGLVQAGGSLRLSCAAAARFSTSAMGWFRQAPGKEREFVAAISWSNTNTHYADTVKGRFTISADTAKETVDLQMNSLKPEDTAVYYCVQGGWGIRQPIIVDYWGKGTQVTVSS
notes: class II(B) psNb
B7 gave an IC50 in experiment [1] of less than 10 nM. The “PRNT SARS-CoV-2 Delta IC50” value in experiment [2] is 34.7 nM.

B8: 5p-78 (VHH)
VHH: HVQLVESGGGLVQAGGSLRLSCAAAARFSTSAMGWFRQAPGKEREFVAAVSWSNTNIHYADTVKGRFTISADTAKETVYLQMNSLKPDDTAVYYCAQGGWGLTQPIIVDYWGKGTQVTVSS
The molecule B8 had an IC50 in experiment [1] of less than 10 nM.

B9: 5p-126 (VHH)
VHH: QVQLVESGGGLVQAGGSLRLSCAAAARFSTSAMGWFRQAPGKEREFVAAVSWSNTNTHYADTVKGRFTISADTAKETVYLQMNSLKPEDTAVYYCAQGGWGLTQPIIVDYWGKGTQVTVSS
Molecule B9 came in with an IC50 in experiment [1] of less than 10 nM.

B10: 5p-124 (VHH)
VHH: HVQLVESGGGLVQAGDSLRLSCAASRIFSTSAMGWFRQAPGKEREFVAAISWSGGNVHYLDSVKGRFAISADNSKSTVFLQMNSLKPEDTAVYYCAQGGWGIRQVIEVDYWGKGTQVTVSS
In experiment [1], B10 registered an IC50 of 10 nM.

B11: 5p-125 (VHH)
VHH: HVQLVESGGGLVQAGDSLRLSCAASRIFSTSAMGWFRQAPGKEREFVAAISWSGTNTHYADPVKGRFAISTDNAKNTVYLQMNSLKPEDTAVYYCAQGGWGLRQPIEVDYWGKGTQVTVSS
B11 came in with an IC50 in experiment [1] of less than 10 nM.

B12: 4P-47 (VHH)
VHH: HVQLVESGGGLVQAGGSLRLSCAADARFSTSAMGWFRQAPGKEREFVAAISWSGANTHYADTVKGRFTISTDTAKNTVYLQMNSLKPEDTAVYYCAQGGWGITQPISVDYWGKGTQVTVSS
Take B12: the IC50 in experiment [1] was less than 10 nM.

B13: R113 (VHH)
VHH: HVQLVESGGGLVQPGGSLRLSCAASGRSFNSYLMGWFRQAPGKEREFVAWISGSPHDIIRYRDSVKDRFTISRDNAKNTVYLQMNSLKPVDTAVYYCAVGSLRVGSFSPDYWGQGTQVTVSS
With B13, the IC50 in experiment [1] and in experiment [3] was less than 10 nM throughout.

B14: 4P-42 (VHH)
VHH: HVQLVESGGGLVQAGGSLRLSCAASGRTFSRYAAGWFRQAPGKEREFVAVIEWDGDNAYYADSVKGRFTISRDNAKNTVYLQMNRLKPEDTAVYICAVGGNHYSPNKYYTADEYDYWGQGTQVTVSS
The molecule B14 gave an IC50 in experiment [1] of less than 10 nM.

B15: 5p-119 (VHH)
VHH: QVQLVESGGGLVQAGGSLRLSCAASRRTFSNYAAGWFRQAPGKEREFVAVIEWNGESAYYADSVKGRFTISRDNAKNTVYLQMNRLKPEDTAIYICAIGGNHYSRSKYYIADEYDYWGQGTQVTVSS
For B15, the IC50 in experiment [1] was less than 10 nM.

B16: 5p-120 (VHH)
VHH: HVQLVESGGGLVQAGGSLRLSCAASGRTFSRYAAGWFRQAPGKEREFVAVIEWDGDSAYYADSVKGRFTISRDNAKNTVYLQMNRLKPEDTAVYICAVGGNHYSRSKYYNLDEYDYWGQGTQVTVSS
Take B16: in experiment [1], the IC50 is less than 10 nM.

B17: 5p-35 (VHH)
VHH: HVQLVESGGGLVQAGGSLRLSCAASGRTFSRYAAGWFRQAPGKEREFVAVIEWDGDSAYYADPVKGRFTISRDNAKNTVYLQMNRLKPEDTAVYICAVGGNHYSRSKYYNLDEYDDWGQGTQVTVSS
notes: class II(B) psNb
The molecule B17 yielded an IC50 in experiment [1] of less than 10 nM. Besides, in experiment [2], the “PRNT SARS-CoV-2 Delta IC50” value is 21 nM.

B18: 4P-71 (VHH)
VHH: HVQLVESGGGLVQAGGSLRLSCAASGRTFSRFAAGWFRQAPGKEREFVAVIDWNGGSAYYADSVKGRFTISRDNAKNTVYLQMNRLKPGDTAVYICAIGGNHYDPSRYYTADEYDYWGQGTQVTVSS
B18 registered an IC50 in experiment [1] of less than 10 nM.

B19: 5p-121 (VHH)
VHH: DVQLVESGGGLVQAGGSLRLSCAASGRTFSRYAAGWFRQAPGKERSFVAVIEWDGDTAYYSDSVKGRFTISRDNAKNTLYLQMNRLKPEDTAVYICAVGGNHYSSSKYYIADEYDYWGQGTQVTVSS
Turning to B19, the IC50 in experiment [1] was less than 10 nM.

B20: 5p-117 (VHH)
VHH: DVQLVESGGGLVQAGESLRLSCAASGRTFRNFAAGWFRQTPGKDREFVAVIEYNGDSAYYADSVKGRFTISRDNAKNTVYLQMNRLKPGDTAVYICAIGGNHYDPSKYYIADEYDYWGQGTQVTVSS
B20 registered an IC50 in experiment [1] of less than 10 nM.

B21: 5p-34 (VHH)
VHH: QVQLVESGGGLVQAGGSLRLSCTASGRTFSRYAAGWFRQAPGKEREFVAVIEWNGDSAYYTDSAKGRFTISRDNTKNTVYLQMNRLKPEDTAVYICAIGGNHYSPSKYYIADEYDYWGQGTQVTVSS
B21: in experiment [1], the IC50 was less than 10 nM.

B22: 5p-182 (VHH)
VHH: EVQLVESGGGLVQTGGSLRLSCALSGYTFSIFPTAWFRQAPGKEREFVAGIRWNGSTRDYTEYADFVKGRFTISRDNAKNMVYLQMISLKPEDTALYYCAASDGVIDGTNANAYRYWGQGTQVTVSS
notes: class I psNb
On to B22, for which the “PRNT SARS-CoV-2 Delta IC50” value in experiment [2] turned out to be 0.31 nM.

B23: 5p-132 (VHH)
VHH: QVQLVESGGGLVQAGGSLRLSCTASGYDFSILAIAWYRQAPGKERELVAAISRVGSTDYADSVKGRFTISRDNTKNTVSLQMDSLKPEDTAVYYCNAGIPMTTVLSGLGFWGQGTQVTVSS
notes: class IV psNb
B23: the IC50 in experiment [1] and in experiment [3] was less than 10 nM throughout.
